Compound potency records, mixed from different reports. Data source: NIAID ChemDB in PubChem.

All rows: whole-cell or culture tests; agent: Hepatitis B virus

Inhibition is in % at the dose shown (toxicity tests: loss of growth or viability). Two numbers with a dash give a range or band. ECn: concentration that inhibits the pathogen or its effect by n%. Neighbouring rows are from separate reports. Blank or dashed fields: not listed here.

SMILES,strain,cell line,method,dose,read-out,value
COc1ccc(-n2c(C(=O)NCc3ccc(=O)[nH]c3)c3n(c2=O)CCN(C(=O)c2ccc(Br)c(Cl)c2)C3)cc1,-,HepG2.117,PCR,-,EC50,>5 µM
Cc1c(C(=O)C(=O)NC(C)(C)c2ccccn2)c(C)n(C)c1C(=O)Nc1ccc(F)c(C#N)c1,-,HepG2.2.15,PCR,-,EC50,0.001–0.0099 µM
O=C(O[C@@H]1Cc2c(O)cc(O)cc2O[C@@H]1c1cc(O)c(O)c(O)c1)c1cc(O)c(O)c(O)c1,-,-,PCR,100 µM,inhibition,72.4%
COC1OC(Cn2cc(C)c(=O)nc2SC)C(O)C1O,-,HepG2 2.2.15,ELISA,100 µM,inhibition,90.04%
Nc1nc(=O)c2ncn([C@@H]3O[C@H](CO)[C@@H](O)[C@H]3O)c2c(=O)[nH]1,-,2.2.15,antigen,10 µM,inhibition,33%
Cc1cc(C)c(C#N)c(=N)o1,gtD,Huh7,-,10 µM,inhibition,>43%
O=C(NCc1ccccc1)c1c2n(c(=O)n1-c1ccccc1)CCN(C(=O)c1ccc(Cl)c(Cl)c1)C2,-,HepG2.117,PCR / entry,-,EC50,0.5–5 µM
C[C@@]12C(=O)OC(=O)[C@]1(C)C1CCC2O1,-,HepG2.2.15,PCR,0.003 µM,inhibition,<40%
O=C(O)c1ccc(-c2cccc(/C=N/NC(=O)c3cc(O)c(O)c(O)c3)c2)cc1,gtA,Huh7,-,10 µM,inhibition,>43%
COC1OC(Cn2c(C)cc(=O)nc2SC)C(O)C1O,-,HepG2 2.2.15,ELISA,100 µM,inhibition,15.8%
C[C@@]12C(=O)N(CCCN3C(=O)[C@@]4(C)C5CCC(O5)[C@@]4(C)C3=O)C(=O)[C@]1(C)C1CCC2O1,-,HepG2.2.15,PCR,0.003 µM,inhibition,<40%
COC(=O)Oc1nsnc1N1CCOCC1,gtA,Huh7,-,10 µM,inhibition,>43%
CCCc1cc(=O)nc(SC)n1CC1OC(OC)C(O)C1O,-,HepG2 2.2.15,ELISA,100 µM,inhibition,30.5%
C#C[C@](C)(CO)NC(=O)C(=O)c1c(C)c(C(=O)Nc2ccc(F)c(C(F)(F)F)c2)n(C)c1C,-,HepG2.2.15,PCR,-,EC50,<0.001 µM
COC1OC(CSc2ncc(C)c(=O)[nH]2)C(O)C1O,-,HepG2 2.2.15,ELISA,100 µM,inhibition,38.6%
C[C@@H](NC(=O)c1c2n(c(=O)n1-c1ccc(OC3CC3)cc1)CCN(C(=O)c1ccc(Br)c(Cl)c1)C2)c1ccc(OCC#N)cc1F,-,HepG2.117,PCR,-,EC50,0.1–0.5 µM
Oc1ccc([C@H]2Oc3cccc(O)c3C(c3c(O)cc(O)c4c3O[C@H](c3ccc(O)c(O)c3)[C@@H](O)C4)[C@H]2O)cc1O,-,HepG2.2.15,ELISA / antigen,30 µM,inhibition,62.3%
C#C[C@](C)(NC(=O)C(=O)c1c(C)c(C(=O)Nc2ccc(F)c(C#N)c2)n(C)c1C)C(F)(F)F,-,HepG2.2.15,PCR,-,EC50,0.001–0.0099 µM
CCOC(=O)c1sc(NC(=O)CSc2nnc(Cc3ccccc3)o2)c(C#N)c1C,gtD,Huh7,-,10 µM,inhibition,>43%
O=C(NCc1ccccc1)c1c2n(c(=O)n1-c1ccc(Cl)cc1)CCN(C(=O)c1ccc(Br)c(Cl)c1)C2,-,HepG2.117,PCR,-,EC50,0.5–5 µM
C#C[C@@](C)(CO)NC(=O)C(=O)c1c(C)c(C(=O)Nc2ccc(F)c(C(F)(F)F)c2)n(C)c1C,-,HepG2.2.15,PCR,-,EC50,0.001–0.0099 µM

Repeating the first 2 entries:

SMILES | strain | cell line | method | dose | read-out | value
COc1ccc(-n2c(C(=O)NCc3ccc(=O)[nH]c3)c3n(c2=O)CCN(C(=O)c2ccc(Br)c(Cl)c2)C3)cc1 | - | HepG2.117 | PCR | - | EC50 | >5 µM
Cc1c(C(=O)C(=O)NC(C)(C)c2ccccn2)c(C)n(C)c1C(=O)Nc1ccc(F)c(C#N)c1 | - | HepG2.2.15 | PCR | - | EC50 | 0.001–0.0099 µM